Assay results: article PMC9461429

How the values were obtained:
[1] = molecular target: SARS-CoV spike glycoprotein (S) (SARS-CoV) (UniProt P59594); assay: SPR
[2] = molecular target: SARS-CoV-2 Wuhan-Hu-1 spike glycoprotein (S) (SARS-CoV-2 Wuhan-Hu-1); assay: SPR

His6-tagged monomeric ACE2 (ACE2-H6) (from UniProt Q9BYF1 18-740) (receptor)
Kd [1]: 351 nM
Kd [2]: 153 nM
